Only a part is listed here, and it is no random draw. Inconclusive results are not listed. Calls of active or inactive are those of the source. Calls come from the whole dose curve.
Assay: qHTS for Inhibitors of the Functional Ribonucleoprotein Complex (vRNP) of Lymphocytic Choriomeningitis Arenaviruses (LCMV): LCMV Confirmatory Screen - GLuc reporter signal
Conditions: LCMV minigenome vRNP, Gaussia luciferase reporter

Question: For `Cc1cc([N+](=O)[O-])cc([N+](=O)[O-])c1O`, which Potency is on record?
Answer: active: 39.5 µM

— PubChem BioAssay AID1347084 (National Center for Advancing Translational Sciences (NCATS), 2019)
